Anti-infective test results gathered from many reports (values: NIAID ChemDB through PubChem).

All rows: target-level tests; species: HIV-1; protein: Reverse transcriptase; read-out: IC50

Blank or dashed fields: not listed here. ICn: concentration for n% inhibition. Neighbouring rows are from separate reports.

| compound | strain | mutations | read by | result |
|---|---|---|---|---|
| COc1ccc(CSc2nc(Cc3c(Cl)cccc3Cl)c(C)c(=O)[nH]2)cc1OC | - | RT-K103N | nucleotide incorporation / radiometric | >400 µM |
| CCOC(=O)Cc1csc(NC(=S)NC[C@H](C)c2ccccc2)n1 | - | - | nucleotide incorporation | >100 µM |
| Cc1c(Cc2c(F)cccc2F)nc(SCc2ccc([N+](=O)[O-])cc2)[nH]c1=O | - | RT-K103N | nucleotide incorporation / radiometric | >400 µM |
| COc1ccc2c(c1)N(C(=O)OC(C)C)[C@@H](CSC)C(=S)N2 | - | RT-G190S | scintillation proximity / radiometric | 1 µM |
| O=C(O[C@@H]1[C@H](O)C[C@@](OC(=O)c2cc(O)c(O)c(O)c2)(C(=O)O)C[C@H]1OC(=O)c1cc(O)c(O)c(O)c1)c1cc(O)c(O)c(O)c1 | - | - | nucleotide incorporation | <20 µg/mL |
| Cc1csc(NC(=S)NC[C@@H](C)c2ccccc2)n1 | - | - | nucleotide incorporation | >100 µM |
| Nc1ncnc2c1ncn2[C@H]1CC[C@@H](COP(=O)(O)OP(=O)(O)OP(=O)(O)O)O1 | HXB2 | - | - | 6.2 µM |
| c1ccc(C2OCc3nc4ccccc4n32)cc1 | IIIB | - | nucleotide incorporation / radiometric | 775 µM |
| O=C(OC[C@H]1O[C@@H](OC(=O)c2cc(O)c(O)c(O)c2)[C@H](O)[C@@H](O)[C@@H]1O)c1cc(O)c(O)c(O)c1 | - | - | nucleotide incorporation | >20 µg/mL |
| Cc1c(Cc2c(Cl)cccc2Cl)nc(SCc2ccc(F)cc2)[nH]c1=O | - | RT-181I | nucleotide incorporation / radiometric | >400 µM |
| CCC1=C(C[C@H]2NCCc3cc(OC)c(OC)cc32)C[C@H]2c3cc(OC)c(OC)cc3CCN2C1 | - | - | - | 9 µM |
| Cc1cn([C@H]2C[C@H](N=[N+]=[N-])[C@@H](COP(=O)(O)OP(=O)(O)C(F)(F)P(=O)(O)O)O2)c(=O)[nH]c1=O | - | - | RT activity | 0.62 µM |
| COc1cc(CSc2nc(Cc3c(Cl)cccc3Cl)c(C)c(=O)[nH]2)cc(OC)c1 | - | RT-181I | nucleotide incorporation / radiometric | >400 µM |
| C[C@@H](CNC(=S)Nc1ccc(Br)cn1)c1ccccc1 | - | - | nucleotide incorporation | 0.4 µM |
| Oc1cc(O)c2c(c1)O[C@H](c1ccc(O)c(O)c1)[C@H](O)C2 | - | - | nucleotide incorporation | >20 µg/mL |
| CO/N=C(\F)c1cc(/C(=C\CCCc2nnc(C)o2)c2cc(C)c3oc(=O)n(C)c3c2)cc(C)c1OC | - | - | RT activity / absorbance | 0.47 µM |
| O=c1c(O)c(-c2ccc(O)c(O)c2)oc2cc(O)cc(O)c12 | - | - | nucleotide incorporation | 635 µM |
| Nc1ncnc2c1ncn2CC(CF)OCP(=O)(O)OP(=O)(O)OP(=O)(O)O | - | - | nucleotide incorporation | 0.017 µM |
| Cc1csc(NC(=S)N[C@@H](C)c2ccccc2)n1 | - | - | nucleotide incorporation | >100 µM |
| Cc1c(Cc2c(Cl)cccc2Cl)nc(S(=O)(=O)Cc2ccc([N+](=O)[O-])cc2)[nH]c1=O | - | RT-181I | nucleotide incorporation / radiometric | >400 µM |
| C[C@@H](CNC(=S)Nc1nc2ccccc2s1)c1ccccc1 | - | - | nucleotide incorporation | >100 µM |
| O=c1c(O[C@@H]2O[C@H](CO)[C@@H](O)[C@H](O)[C@H]2O)c(-c2ccc(O)c(O)c2)oc2cc(O)cc(O)c12 | - | - | nucleotide incorporation | 50 µM |
| Cc1c(Cc2c(Cl)cccc2Cl)nc(SCc2ccc(O)cc2)[nH]c1=O | - | RT-181I | nucleotide incorporation / radiometric | >400 µM |
| CC[C@H]1CN2CCc3cc(OC)c(OC)cc3[C@@H]2C[C@@H]1CC1=NCCc2cc(O)c(OC)cc21.O=C(O)C(=O)O | - | - | - | 404 µM |
| Fc1cccc(F)c1C1SCc2nc3ccccc3n21 | IIIB | - | nucleotide incorporation / radiometric | 15 µM |
| O=c1c(O[C@@H]2O[C@H](CO)[C@H](O)[C@H](O)[C@H]2O)c(-c2ccc(O)c(O)c2)oc2cc(O)cc(O)c12 | - | - | nucleotide incorporation | 1000 µM |
| Cc1c(Cc2c(Cl)cccc2Cl)nc(SCc2ccc3c(c2)C(=O)c2ccccc2C3=O)[nH]c1=O | - | RT-K103N | nucleotide incorporation / radiometric | >400 µM |
| O=c1cc(-c2ccc(O)cc2)oc2cc(O[C@@H]3O[C@H](CO)[C@@H](O)[C@H](O)[C@H]3O)cc(O)c12 | - | - | nucleotide incorporation | >1000 µM |
| Cc1ccc(NC(=S)N[C@@H](C)c2ccccc2)nc1 | - | - | nucleotide incorporation | >100 µM |
| Cc1c(Cc2c(Cl)cccc2Cl)nc(SCc2ccc(Cl)cc2)[nH]c1=O | - | RT-K103N | nucleotide incorporation / radiometric | >400 µM |
| COC(=O)c1cc(O)c(O)c(O)c1 | - | - | nucleotide incorporation | >1000 µM |